PubChem BioAssay AID1259414 | Drosophila RNAi Screening Center | 2018
Test: 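Genome-wide screen for host control of endosymbiont load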 (primary screen). System: Drosophila JW18 cells infected with Wolbachia. Reagents: long dsRNA against Drosophila genes, 0.25 µg dsRNA per well of a 384-well plate. Time to read-out: 5 days. Challenge: cells persistently infected with Wolbachia before knock-down; no added drug. Measurement: 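Imaged fluorescence in situ signal for Wolbachia 23S rRNA per DAPI-counted host cell, given as a robust z-score within each plate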. Reading the numbers: Wolbachia per cell robust z: higher = more Wolbachia per host cell than the plate typical. Active means: 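Hit when robust z is 1.5 or more, or -1.5 or less, in at least two of three replicates; excludes dsRNAs with several or no targets, genes not expressed in JW18 and well A1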.
The deposit covers about 24,000 reagents; below is an unselected part of those with a known target gene and a result. In the full data, about 1,210 (5%) are marked active. 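Inactive calls also include excluded dsRNAs with several or no targets, genes unexpressed in JW18, and well A1, regardless of score.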 Unmarked entries are inactive. Names joined by + are all predicted targets of the reagent. No sequences are given here.

no.	predicted target	DRSC id	Wolbachia per cell robust z, rep 1	Wolbachia per cell robust z, rep 2	Wolbachia per cell robust z, rep 3
1	Pino	DRSC00038	0.0954	0.755	0.821
2	Pino	DRSC00662	-0.488	-6.03	0.295
3	CG7362	DRSC16236	-0.263	-0.00361	0.125
4	CG7362	DRSC29548	0.387	0.458	-0.534
5	BicD	DRSC02006	-4.14	0.849	0.376
6	Gad1	DRSC08661	-3.14	0.763	0.634
7	Gad1	DRSC27052	0.435	-0.341	1.71
8	CG6431	DRSC02956	1.53	-0.73	-0.738
9	Pten	DRSC03402	0.333	-1.19	-1.27
10	Pten	DRSC29950	0.507	-0.627	0.0258
11	scpr-C + scpr-A	DRSC15737	0.558	0.174	0.331
12	CG4820	DRSC15654	0.185	1.32	0.946
13	PGRP-LA	DRSC10327	-0.0724	-5.93	-0.72
14	PGRP-LA	DRSC10414	0.449	-1.16	-1.46
15	Ance-4	DRSC07104	2.46	1.21	0.591
16	CG15554	DRSC15092	-3.18	-0.0837	0.697
17	NijA	DRSC10637	0.173	1.04	0.615
18	RpL7	DRSC03417	4.32 (active)	2.96	3.92
19	RpL7	DRSC29340	1.03	1.53	0.285
20	CG16978	DRSC02553	-0.131	-4.66	0.439
21	Nup37	DRSC14419	0.191	-1.63	-0.101
22	CG34028	DRSC38800	-1.99	0.184	1.19
23	CG17327	DRSC15225	1.22	-1.28	-1.69
24	Adf1	DRSC04941	0.288	0.517	0.778
25	Adf1	DRSC04963	0.37	-0.0866	-2.4
26	Pgant6	DRSC08552	-1.52	-1.23	-0.768
27	Pgant6	DRSC26927	-6.2	-0.185	0.0706
28	Polr3H	DRSC10817	0.717	-4.83	-1.27
29	bnl	DRSC13377	0.624	-0.229	-0.741
30	bnl	DRSC23212	0.975	0.924	0.706
31	bnl	DRSC29056	-1.26	-0.0461	-0.172
32	uif	DRSC03427	-1.14	-0.501	-0.439
33	CG8006	DRSC10949	-0.632	0.336	0.949
34	CG17739	DRSC06689	-8.07	0.518	0.332
35	CG17739	DRSC26518	0.951	-0.141	-0.459
36	ERR	DRSC10840	0.465	0.454	-0.341
37	lncRNA:CR43314	DRSC21354	0.555	0.383	0.592
38	lncRNA:CR43314	DRSC29259	0.366	-0.532	-0.855
39	CG7772	DRSC20056	-0.66	0.0356	-0.0555
40	CG13784	DRSC00974	0.579	0.674	0.448
41	Ptp10D	DRSC20272	-0.699	-1.38	-0.1
42	Ptp10D	DRSC39114	-1.28	-1.11	-0.78
43	DCX-EMAP	DRSC10012	-0.207	-1.62	-1.2
44	DCX-EMAP	DRSC10013	-0.115	-0.664	-0.904
45	DCX-EMAP	DRSC23492	-0.84	-1.24	-2.35
46	CG33331 + CG33332	DRSC22928	-0.36	0.504	0.104
47	Npc2d	DRSC14551	0.671	-0.148	-2.11
48	Npc2d	DRSC28011	-0.85	0.753	-0.227
49	CG5916	DRSC15917	-1.07	0.36	0.353
50	CG2256	DRSC18220	-1.59	-0.119	0.284
51	CG2256	DRSC28187	-1.85	1.31	0.0927
52	CG17068	DRSC20545	1.4	-0.223	-3.03
53	Rad51D	DRSC06840	0.187	-0.609	-0.0718
54	Tsr1	DRSC11821	-0.342	-0.573	-0.457
55	CG34155	DRSC13991	0.225	-1.38	1.04
56	rumi	DRSC15177	-2.43 (active)	-2.39	-0.776
57	rumi	DRSC29617	0.0376	-2	0.776
58	Tep1	DRSC03450	-0.731	1.07	-0.175
59	Tep1	DRSC26163	-2.29	-1.18	-1.5
60	GCC88	DRSC14264	0.0918	-6.38	-0.635
61	GCC88	DRSC29299	-0.601	-0.351	0.939
62	Sec24CD	DRSC00300	-0.674	1.98	0.944
63	muskelin	DRSC07273	0.514	0.687	0.0872
64	l(3)mbt	DRSC16983	-0.272	1.36	0.759
65	l(3)mbt	DRSC26103	-1.97	-0.205	0.806
66	Atg10 + CG12822	DRSC06796	0.108	0.347	-0.23
67	Sr-CIV	DRSC00575	-0.642	-0.814	-1.42
68	Sr-CIV	DRSC24930	0.166	0.523	2.21

In a second layout: entries from further up.
{"predicted target":"CG7772","DRSC id":"DRSC20056","Wolbachia per cell robust z, rep 1":-0.66,"Wolbachia per cell robust z, rep 2":0.0356,"Wolbachia per cell robust z, rep 3":-0.0555}
{"predicted target":"CG13784","DRSC id":"DRSC00974","Wolbachia per cell robust z, rep 1":0.579,"Wolbachia per cell robust z, rep 2":0.674,"Wolbachia per cell robust z, rep 3":0.448}
{"predicted target":"Ptp10D","DRSC id":"DRSC20272","Wolbachia per cell robust z, rep 1":-0.699,"Wolbachia per cell robust z, rep 2":-1.38,"Wolbachia per cell robust z, rep 3":-0.1}
{"predicted target":"Ptp10D","DRSC id":"DRSC39114","Wolbachia per cell robust z, rep 1":-1.28,"Wolbachia per cell robust z, rep 2":-1.11,"Wolbachia per cell robust z, rep 3":-0.78}
{"predicted target":"DCX-EMAP","DRSC id":"DRSC10012","Wolbachia per cell robust z, rep 1":-0.207,"Wolbachia per cell robust z, rep 2":-1.62,"Wolbachia per cell robust z, rep 3":-1.2}
{"predicted target":"DCX-EMAP","DRSC id":"DRSC10013","Wolbachia per cell robust z, rep 1":-0.115,"Wolbachia per cell robust z, rep 2":-0.664,"Wolbachia per cell robust z, rep 3":-0.904}
{"predicted target":"DCX-EMAP","DRSC id":"DRSC23492","Wolbachia per cell robust z, rep 1":-0.84,"Wolbachia per cell robust z, rep 2":-1.24,"Wolbachia per cell robust z, rep 3":-2.35}
{"predicted target":"CG33331 + CG33332","DRSC id":"DRSC22928","Wolbachia per cell robust z, rep 1":-0.36,"Wolbachia per cell robust z, rep 2":0.504,"Wolbachia per cell robust z, rep 3":0.104}
{"predicted target":"Npc2d","DRSC id":"DRSC14551","Wolbachia per cell robust z, rep 1":0.671,"Wolbachia per cell robust z, rep 2":-0.148,"Wolbachia per cell robust z, rep 3":-2.11}
